Anti-infective test results gathered from many reports (values: NIAID ChemDB through PubChem).

Shared fields: enzyme or target tests; species: HIV-1; target: Reverse transcriptase; endpoint: fold resistance

Neighbouring rows are from separate reports. Fold resistance: result on the changed form divided by that on wild type. Blank or dashed fields: not listed here.

{"structure": "CC(C)=CCOc1cc(NC(=S)c2ccoc2C)ccc1Cl", "changes": "RT-P236L", "result": "0.34"}
{"structure": "CC(C)=CCN1Cc2cccc3[nH]c(=S)n(c23)C[C@@H]1C", "changes": "RT-L100I", "method": "RT activity", "result": ">22"}
{"structure": "c1ccc(C2SCc3nc4ccccc4n32)cc1", "changes": "RT-H221Y", "result": "~1.5"}
{"structure": "O=C(Nc1nnc(-c2ccc3c(c2)CCCC3)o1)C1=COCCO1", "changes": "K103N/Y181C", "method": "RT activity / nucleotide incorporation / luminescence", "strain or isolate": "NL4-3", "result": "10"}
{"structure": "Nc1ccn([C@H]2CC[C@@H](COP(=O)(O)OP(=O)(O)OP(=O)(O)O)O2)c(=O)n1", "changes": "RT-Q151M", "method": "nucleotide incorporation / radiometric", "result": "2.44"}
{"structure": "CCc1cc(CCc2nc3c(Cl)ccc(Cl)c3o2)c(=O)[nH]c1C", "changes": "RT-Y181C", "method": "nucleotide incorporation", "result": "12"}
{"structure": "CCc1c(Sc2ccccn2)n(COCc2ccccc2)c(=O)[nH]c1=O", "changes": "RT-Y181C", "result": ">7"}
{"structure": "CC(C)=CCN1C(=O)Nc2ccc(Cl)cc2S1(=O)=O", "changes": "RT-Y181C", "method": "RT activity", "strain or isolate": "IIIB", "result": "3.7"}
{"structure": "Cc1cn([C@@H]2O[C@H](CO[Si](C)(C)C(C)(C)C)C3(OS(=O)(=O)C=C3N)[C@H]2O[Si](C)(C)C(C)(C)C)c(=O)n(C)c1=O", "changes": "RT-P225H", "method": "RT activity", "strain or isolate": "IIIB", "result": "2.2"}
{"structure": "CCc1c(Sc2ccccc2)n(COCc2ccccc2)c(=O)[nH]c1=O", "changes": "RT-L100I", "method": "RT activity", "result": "2"}
{"structure": "C/C=C/CSc1cc(NC(=S)c2ccsc2C)ccc1Cl", "changes": "RT-V106A", "result": "1.35"}
{"structure": "Cc1cn([C@H]2C=C[C@@H](COP(=O)(O)OP(=O)(O)OP(=O)(O)O)O2)c(=O)[nH]c1=O", "changes": "RT-Q161L", "result": "32"}
{"structure": "Nc1ccn([C@H]2CC[C@@H](COP(=O)(O)OP(=O)(O)OP(=O)(O)O)O2)c(=O)n1", "changes": "RT-T215Y K219Q", "method": "ELISA", "result": "0.89"}
{"structure": "O=c1c2cccn2c2cc(Cl)c(Cl)cc2n1CCNC(=S)Nc1ccc(Br)cn1", "changes": "RT-Y188L", "method": "nucleotide incorporation", "result": "7.5"}
{"structure": "Cc1c(Sc2ccccc2)n(COCCO)c(=O)[nH]c1=O", "changes": "RT-T139I N348K", "method": "nucleotide incorporation", "result": "3.33"}
{"structure": "Nc1ncnc2c1ncn2[C@@H]1O[C@H](COP(=O)(O)OP(=O)(O)OP(=O)(O)O)C[C@@H]1F", "changes": "RT-A62V V75I F77L F116Y Q151M", "method": "nucleotide incorporation", "result": "2.7"}
{"structure": "CC(C)=CCN1C(=O)c2cccn2-c2ccc(Cl)cc2S1(=O)=O", "changes": "RT-L100I", "method": "RT activity", "strain or isolate": "IIIB", "result": "21.4"}
{"structure": "Nc1ncnc2c1ncn2[C@H]1CC[C@@H](COP(=O)(O)OP(=O)(O)OP(=O)(O)O)O1", "changes": "RT-A62V V75I F77L F116Y Q151M", "method": "nucleotide incorporation", "result": "8.8"}
{"structure": "Cc1ccc2c(c1)n(CCNC(=S)Nc1ccc(Br)cn1)c(=O)c1cccn12", "changes": "RT-K103N", "method": "nucleotide incorporation", "result": "25"}
{"structure": "Cc1cn([C@H]2CC[C@@H](COP(=O)(O)OP(=O)(O)OP(=O)(O)O)O2)c(=O)[nH]c1=O", "changes": "RT-Y188L", "method": "RT activity", "result": "1"}
{"structure": "Cc1cc(SC2=C(O)C[C@@](CCc3ccc(O)cc3)(C(C)C)OC2=O)c(C(C)(C)C)cc1CO", "changes": "RT-I84V", "method": "HPLC / absorbance", "result": "1.8"}
{"structure": "O=C1c2cccnc2C(=O)N1CCNC(=S)Nc1ccc(Br)cn1", "changes": "RT-K103N", "method": "nucleotide incorporation", "result": "0.789"}
{"structure": "Cc1cn([C@H]2CC[C@@H](COP(=O)(O)OP(=O)(O)OP(=O)(O)O)O2)c(=O)[nH]c1=O", "changes": "RT-I135A", "method": "nucleotide incorporation / radiometric", "result": "0.8"}
{"structure": "Cc1cc(S(N)(=O)=O)ccc1NC(=O)COc1ccc(Cl)cc1C(=O)c1cc(Cl)cc(C#N)c1", "changes": "RT-Y181C", "method": "fluorescence", "result": "1.27"}
{"structure": "Nc1ncnc2c1ncn2[C@H]1CC[C@@H](COP(=O)(O)OP(=O)(O)OP(=O)(O)O)O1", "changes": "RT-L74V", "method": "ELISA", "result": "2.49"}
{"structure": "CC(C)=CCN1C(C)C(=O)Nc2ccc(Cl)cc2S1(=O)=O", "changes": "RT-L100I", "method": "RT activity", "strain or isolate": "IIIB", "result": "9.09"}
{"structure": "O=c1c2cccn2c2ccccc2n1CCNC(=S)Nc1ccc(Cl)cn1", "changes": "RT-Y188L", "method": "nucleotide incorporation", "result": ">50"}
{"structure": "Cc1occc1C(=S)Nc1ccc(Cl)c(/C=N/OC(C)(C)C)c1", "changes": "RT-Y181I", "result": "5.05"}
{"structure": "CCc1cc(CCc2nc3ccccc3o2)c(=S)[nH]c1C", "changes": "RT-K103N Y181C", "method": "nucleotide incorporation", "result": "400"}
{"structure": "CNc1ccc(Cl)cc1S(=O)(=O)c1ccccc1[N+](=O)[O-]", "changes": "RT-V106A", "result": "0.182"}
{"structure": "O=C1c2ccncc2C(=O)N1CCNC(=S)Nc1ccc(Br)cn1", "changes": "RT-V106A", "method": "nucleotide incorporation", "result": "20.6"}
{"structure": "CCN1c2ncc(CS(=O)(=O)c3ccccc3)cc2C(=O)N(C)c2ccc(Cl)nc21", "changes": "RT-Y188L", "method": "RT activity", "result": "110"}

Again, the opening 2 rows:

| structure | changes | method | strain or isolate | result |
|---|---|---|---|---|
| CC(C)=CCOc1cc(NC(=S)c2ccoc2C)ccc1Cl | RT-P236L | - | - | 0.34 |
| CC(C)=CCN1Cc2cccc3[nH]c(=S)n(c23)C[C@@H]1C | RT-L100I | RT activity | - | >22 |